According to patent publication US20250382354A1 (INSTITUTE FOR RESEARCH IN BIOMEDICINE IRB, published 2025):

B1: fp.001 (antibody, V domains shown)
VH: VQLVESGGGVVQPGRPLRLSCSGSGFIFSNYAMHWVRQAPGKGLEWVAIISFDARNKRYADSVEGRFTISRDNSKNILYLQMNSLRLEDSAVYFCARDLFLSDYDNGVYDPTRGGFDYWGQGTLVTVSS
VL: EIVMTQSPATLSLSPGERATLSCRASQSVNNRLAWYQQKLGQPPRLLISGASTRATGIPARFTGSGSGTEFTLTISSLQSEDFAVYYCQQYHDWPLLSFGGGTKVEIK
B2: fp.004 (antibody, V domains shown)
VH: VQLVESGGGVVQPGTSLRLSCVASGFTFSNYAMHWVRQAPGKGLEWVAIISFDTRNTASAASVKGRFNISRDNSKNSLYLQMNSLRPEDTGVYYCARDLFLSDYDSRGYDPITGGFDCWGQGTLVTVSS
VL: EIVMTQSPAALSVSPGEGATLSCRASQSVGSRLAWYQQKLGRPPRLLIYGASTRATGIPARFSGSGSGTEFTLTISSLQSEDFAVYYCQQYNDWPLLTFGGGTKVKIK
B3: fp.005 (antibody, V domains shown)
VH: VQLVESGGGVVQPGNSLRLSCAASGFRFNNYAMHWVRQAPGKGLEWVAIISYEARNEKYADSVKGRFSISRDNAKNTLYLQMNSLRADDTGVYYCARDLFLSDYDTSGYDRTRGGFDYWGQGALVTVSS
VL: EIVMTQSPATLSVSPGERATLSCRASQSVSNGLAWYQHRFGQPPRLLIYGASTRATGIPTRFSGSGSGTEFTLTISSLQSEDFAVYYCQQYDDWPLITFGGGTKVEIK
B4: fp.006 (antibody, V domains shown)
VH: VQLVESGGGVVQPGGSLRLSCAASGFNFNNYALHWVRQAPGKGLEWVAIISYEARNKKYGVSVMGRFSISRDNSKSIMYLEMNSLRVEDTGVYYCARDLFLSDYDRSGYDPTRGGFDHWGQGTLVTVSS
VL: EIVMTQSPATLSVSPGERATLSCRASQSVSSSLAWYQHRFGQAPRLLISGASTRATGIPGRFSGSGSGTEFTLTISSLQSEDVAVYYCQQYGDWPLVTFGGGTKVEIK
B5: fp.008 (antibody, V domains shown)
VH: VQLVESGGGVVQPGRSLRLSCRASGFRFNNYAMHWVRQAPGKGLEWVAIISYEARNEKYAASVKGRFSISRDNAKNTLYLQMNSLRPEDTAIYYCARDVFLSDYDQSGYDVTRGGFDYWGQGTLVTVSS
VL: EIVMTQSPATLSVSPGESATLSCRASQSVSSSLAWYQHKFGQAPRLLIYGASTRATGIPDRFSGSGSGMEFTLTISSLQSEDVAIYYCQQYGDWPLVTFGGGTKVEIK
B6: sd1.032 (antibody, V domains shown)
VH: QVQLVQSGAEVKRPGSSVKVSCKASGGTFNNYAMTWVRQAPGQGLEWMGGIIPMLGTENYAQKFQGRVTITADESTSTAHMELSSLRSEDTAVYYCARLTVPTPHSYYSYGLDAWGQGTTVTVSS
VL: QSALTQPASVSGSPGQSITISCTGTSSDVGSYNLVSWFQQHAGRAPKLMIYEGNKRPSGISNRFSGSKSGNTASLTISGLQAEDEADYYCCSYAGSSTHVFGTGTKVTVL
B7: hr2.012 (antibody, V domains shown)
VH: QVQLVQSGAEVKKPGASVKVSCKASGYTFTSHYIHWVRQAPGQGLEWMGIIKPSGGNTIYAQTFQGRVTMTRDTSTSTVYMELRSLTSDDTAVYYCARDQDHGLQRWGQGTLVTVSS
VL: QSVLTQPPSVSAPPGQKVTISCSGSSSNIGNNFVSWYQQLPGTAPKLLIYDNIERPSGIPDRFSGSRSGTSATLGITGLQTGDEADYYCGTWDTSLGAWVFGGGTKVTVL
B8: sd1.102 (antibody, V domains shown)
VH: QVQLVQSGAEVKKPGSSVKVSCKASGGTFSSYAISWVRQAPGQGLEWMGGIIPLYGTANYAQKFQGRVTITADESTSTTYMELSSLTSEDTAVYYCVRFRGGDYYYYYGMDVWGQGTTVTVSS
VL: EIVMTQSPATLSVSPGESATLSCRASQTVSTNLAWYQQKPGQAPRLLIFGASTRATGIPARFSGSGSGTEFTLSISSLQSEDFAVYYCHQYNSRRTFGQGTKLEIK
B9: hr2.013 (antibody, V domains shown)
VH: QVQLVQSGAEVKKPGASVKISCKASGYTFTNNYMNWVRQAPGQGLEWMGIIKPSSGSTIYAHKFQGRVTMTRDTSTSTVYMEVRSLTSEDTAVYYCARDQDHGLQNWGQGTLVTVSS
VL: QSVLTQPPSVSAASGQKVTIYCSGSSSNIASNFVSWYQQFPGTAPKLLIYDNNQRPSGIPDRFSGSRSGTSATLGITGLQTGDEADYYCGTWDTSLGAWVFGGGTKLTVL
B10: sd1.129 (antibody, V domains shown)
VH: QVQLVQSGAEVKRPGSSVKVSCKASGGAFSNYAISWVRQAPGQGLEWMGGIIPIFGTTNYAQRFQGRVTISADESTGTAYMELSSLRFADTAIYYCARADAYSGSYYPSANWFDPWGQGTLVTVSS
VL: EIVLTQSPATLSLSPGERATLSCRASQSVSNYLAWYQQKPGQAPRLLIYDASNRATGIPARFSGSGSGTDFTLTISSLEPEDFAVYYCQQRQNWPPGWTFGQGTKVEIK
B11: rbd.035 (antibody, V domains shown)
VH: EVQLLESGGGLIEPGGSLRLSCAASGFPFNTFAMTWVRQPPGKGLEWVATISSRGDYTFYADFVKGRFSISRDNANNALWLDMSGLRAEDTALYYCAKGESGYDLYLYGLDLWGQGTTVTVSS
VL: DIQMTQSPSSLSASVGDGVTITCRASQNINNYLSWYQKKAGKAPKLLIYGASTLHSGVPSRFSGSGSGTDFTLTISSLQPEDFASYYCQQNSPTPPWTFGQGTKVEIK
B12: rbd.049 (antibody, V domains shown)
VH: QLQLQESGPGLVKPSETLSLSCTVSGGSISSKSDYWGWIRQSPGKGLEWIGSIYYTGTTYYNPSLKSRVSISLDKSKNQFSLKLNSLTAADTALYYCARDPSIAVATTVYFDAWGQGTLVTVSS
VL: EIVLTQSPGTLSLSPGERATLSCRASESVKSNYLAWYQQKLGQPPRLLIFGASTRATGIPDRFSGSGSGTDFTLTISRLEPEDFAVYYCQQYHTSPPRYTFGQGTKLEIK
B13: hr2.015 (antibody, V domains shown)
VH: QVQLVQSGAEVKKPGASVKVSCKASGYTFSSYYVNWVRQAPGQGLEWLGIINRSGSSTIYAQKFQGRVTMTRDTSTSTVYLELSSLRSEDTAVYYCARDQDHALHWGQGTLVTVSS
VL: QSVLTQPPSVSAAPGQKVTISCSGSSSNIGSNYVSWYQQLPGTAPKLLIYDNSERPSGIPDRFSGSRSGTSATLGITGLQTGDEADYYCGTWDTSLSAWVFGGGTKLTVL
B14: hr2.016 (antibody, V domains shown)
VH: EVQLLESGGGLVQPGGSLRLSCAASGFMFSKYAMTWVRQTPGKGLEWVSVISGGGGSTYYADSVKGRFTISRDNSKNTLYLQMNSLRAEDTAVYYCAKLLVVFVIDYWGQGALVTVSS
VL: EIVLTQSPGTLSLSPGERATLFCRASQSVSSNLAWYQQKPGRAPRLLISGASSRATGIPDRFSGSGSGTDFTLTISRLEPEDFAVYYCQQYGSSPPTFGQGTKVEIK
B15: hr2.017 (antibody, V domains shown)
VH: EVQLVESGGGLVQPGGSLRLSCAVSGFAFSSSWMHWIRQAPGRGLVWVSRINRDGSTTDYADSVKGRFTISRDNAKATLYLQMNSLRAEDTAVYYCATMGFDYWGQGALVTVSS
VL: DIVMTQSPDSLAVSLGERATINCKSSQNVLYSSNNKNHLSWYQQKPGQPPKLLIYWASTRKSGVPDRFSGSGSGTDFTLTINSLQAEDVAVYYCQQYFSTPNTFGQGTKLEIK
B16: hr2.018 (antibody, V domains shown)
VH: EVQLVESGGGLVKPGGSLRLSCVASGSSVIDAWMNWVRQAPGKGLEWVGRIKSKTNGATTDYAAPVKGRFTISRDDSKNLSYLQMNSLKTEDTGIYYCTTSPLPNFDYWGRGTLVTVSS
VL: DIVMTQSPDFLAVSLGERATINCKSSQSVLYSSNNKNYLAWYQQKPGQPPKLLIYWASKRESGVPDRFSGSGSGTDFTLTISSLQAEDVAVYYCQQYYSPAITFGPGTKVDIK
B17: hr2.019 (antibody, V domains shown)
VH: EVQLVESGGGLVKPGGSLRLSCAASGSSVIDVWMNWVRQAPGKGLEWVGRIKTKASGAATDYGAPVKGRFTISRDDSKNLSYLQMNSLRAEDTGIYYCTTSPLPNFDYWGRGTLVTVSS
VL: DIVMTQSPDFLAVSLGETATINCRSSQSVFYFANNKNYLAWYQQKPGQPPKLLIYWASKRESGVPDRFSGSGSGTDFTLTISSLQAEDVATYYCQQYSSPAITFGPGTKVDIK

How the values were obtained:
[1] = target: T1, SARS-CoV-2 S ectodomain, Omicron BA.4/BA.5 (SARS-CoV-2 Omicron BA.4/BA.5); test: ELISA on coated S
T1 construct: extracellular domain

[2] = target: T2, SARS-CoV-2 S ectodomain, Omicron BA.1 (SARS-CoV-2 Omicron BA.1); test: ELISA on coated S
T2 construct: extracellular domain

[3] = target: T3, SARS-CoV-2 S ectodomain, Delta (SARS-CoV-2 Delta); test: ELISA on coated S
T3 construct: extracellular domain

[4] = target: T4, SARS-CoV-2 SD1-RBD Delta (SARS-CoV-2 Delta); test: protein ELISA
T4 construct: domain: SD1-RBD

[5] = target: T5, SARS-CoV-2 SD1-RBD Beta (SARS-CoV-2 Beta); test: protein ELISA
T5 construct: domain: SD1-RBD

[6] = target: T6, SARS-CoV-2 S Delta (ectodomain) (SARS-CoV-2 Delta); test: protein ELISA
T6 construct: extracellular domain

[7] = target: T7, SARS-CoV-2 S Omicron BA.1 (ectodomain) (SARS-CoV-2 Omicron BA.1); test: protein ELISA
T7 construct: extracellular domain

[8] = target: T8, SARS-CoV-2 SD1-RBD Gamma (SARS-CoV-2 Gamma); test: protein ELISA
T8 construct: domain: SD1-RBD

[9] = target: T9, SARS-CoV-2 S Omicron BA.4/BA.5 (ectodomain) (SARS-CoV-2 Omicron BA.4/BA.5); test: protein ELISA
T9 construct: extracellular domain

[10] = target: T10, SARS-CoV-2 SD1-RBD Omicron BA.2 (SARS-CoV-2 Omicron BA.2); test: protein ELISA
T10 construct: domain: SD1-RBD

| Binder | EC50 [1] [µg/mL] | EC50 [2] [µg/mL] | EC50 [3] [µg/mL] | EC50 [4] [µg/mL] | EC50 [5] [µg/mL] | EC50 [6] [µg/mL] | EC50 [7] [µg/mL] | EC50 [8] [µg/mL] | EC50 [9] [µg/mL] | EC50 [10] [µg/mL] |
| --- | --- | --- | --- | --- | --- | --- | --- | --- | --- | --- |
| B1 | 0.407 | 1.81 | 0.186 | – | – | – | – | – | – | – |
| B2 | 0.476 | 1.74 | 0.341 | – | – | – | – | – | – | – |
| B3 | 0.421 | 0.276 | 0.212 | – | – | – | – | – | – | – |
| B4 | 0.346 | 0.486 | 0.235 | – | – | – | – | – | – | – |
| B5 | 0.558 | 0.351 | 0.378 | – | – | – | – | – | – | – |
| B6 | – | – | – | 0.445 | 0.345 | 4.47 | 8.98 | 0.398 | – | – |
| B7 | 0.0542 | 0.0572 | 0.0706 | – | – | – | – | – | – | – |
| B8 | – | – | – | 0.811 | 3.17 | 0.0996 | 2.22 | 1.26 | 0.537 | – |
| B9 | 0.037 | 0.0666 | 0.0953 | – | – | – | – | – | – | – |
| B10 | – | – | – | 0.28 | 1.84 | – | 0.277 | 0.324 | 0.0983 | 1.3 |
| B11 | – | – | – | 0.0165 | 0.013 | 0.0135 | 2.72 | 0.0142 | – | – |
| B12 | – | – | – | 0.017 | 1.18 | 0.11 | – | 1.49 | 4.2 | – |
| B13 | 0.746 | 0.175 | 0.31 | – | – | – | – | – | – | – |
| B14 | 0.105 | 0.0396 | 0.0602 | – | – | – | – | – | – | – |
| B15 | 0.0793 | 0.0908 | 0.0944 | – | – | – | – | – | – | – |
| B16 | 0.177 | 0.117 | 0.159 | – | – | – | – | – | – | – |
| B17 | 0.0773 | 0.0845 | 0.104 | – | – | – | – | – | – | – |
